{"source": "patent US12569565B2", "about": "“Compositions and methods for the treatment of viral infections” (Cidara Therapeutics, Inc., priority 2018, dated 2026)", "key": {"A/WSN/1933 H1N1": {"system": "A/WSN/1933 H1N1", "assay": "Serial passage for selection of resistant influenza viruses, MDCK cells", "settings": "baloxavir 4 nM, oseltamivir 50 nM"}, "[1]": {"system": "A/California/04/09/H1N1 pdm", "assay": "Serial passage for selection of resistant influenza viruses, A549 cells", "settings": "baloxavir 0.5 nM, oseltamivir 200 nM"}}, "data": [{"compound": "CCOC(=O)C1=C[C@@H](OC(CC)CC)[C@H](NC(C)=O)[C@@H](N)C1", "values": [{"measurement": "passage after which titers increased to levels similar to PBS control", "setting": "A/WSN/1933 H1N1", "value": 10}, {"measurement": "passage after which titers increased to levels similar to PBS control", "setting": "[1]", "value": 11}]}, {"compound": "O=C1c2c(O)c(=O)ccn2N([C@@H]2c3ccccc3SCc3c2ccc(F)c3F)[C@@H]2COCCN12", "values": [{"measurement": "passage after which titers increased to levels similar to PBS control", "setting": "A/WSN/1933 H1N1", "value": 5}, {"measurement": "passage after which titers increased to levels similar to PBS control", "setting": "[1]", "value": 5}]}]}
